Data from patent publication US20190085033A1.

Target: BG505 SOSIP.664
Experiment: SPR

Substance: PGT128
- Kd: 8 nM
